The results in this text go back to US20160264649A1 (published 2016).

What all share (test): cell-based or functional assay
The target of assay [1] is HIV-1 Env of isolate MG RM-A-011 (subtype A) (HIV-1).
Assay [2] deals with HIV-1 Env of isolate MG RM-A-003 (subtype A) (HIV-1).
Assay [3] addresses HIV-1 Env of isolate MG RM-AG-013 (subtype AG) (HIV-1).
Assay [4] has as its target HIV-1 Env of isolate MG RM-AG-001 (subtype AG) (HIV-1).
Assay [5] deals with HIV-1 Env of isolate MG RM-A-010 (subtype A) (HIV-1).
The target in assay [6] is HIV-1 Env of isolate MG RM-AG-012 (subtype AG) (HIV-1).
The target in assay [7] is HIV-1 Env of isolate MG RM-A-007 (subtype A) (HIV-1).
Assay [8] concerns the target HIV-1 Env of isolate MG RM-A-009 (subtype A) (HIV-1).
Assay [9] has as its target HIV-1 Env of isolate MG RM-AG-002 (subtype AG) (HIV-1).
The target in assay [10] is HIV-1 Env of isolate MG RM-A-013 (subtype A) (HIV-1).
Assay [11] deals with HIV-1 Env of isolate MG RM-A-012 (subtype A) (HIV-1).
Assay [12] deals with HIV-1 Env of isolate MG RM-A-005 (subtype A) (HIV-1).
The target in assay [13] is HIV-1 Env of isolate MG RM-A-014 (subtype A) (HIV-1).
Assay [14] has as its target HIV-1 Env of isolate MG RM-AG-011 (subtype AG) (HIV-1).
In assay [15] the target is HIV-1 Env of isolate MG RM-C-010 (HIV-1).
Assay [16] concerns the target HIV-1 Env of isolate MG RM-C-002 (HIV-1).
The target in assay [17] is HIV-1 Env of isolate MG RM-C-006 (HIV-1).
Assay [18] concerns the target HIV-1 Env of isolate MG RM-C-013 (HIV-1).
The target of assay [19] is HIV-1 Env of isolate MG RM-C-004 (HIV-1).
The target of assay [20] is HIV-1 Env of isolate MG RM-C-014 (HIV-1).
Assay [21] deals with HIV-1 Env of isolate MG RM-C-001 (HIV-1).
The target in assay [22] is HIV-1 Env of isolate MG RM-C-009 (HIV-1).
For assay [23], the target named is HIV-1 Env of isolate MG RM-C-005 (HIV-1).
The target in assay [24] is HIV-1 Env of isolate MG RM-C-017 (HIV-1).
Assay [25] concerns the target HIV-1 Env of isolate MG RM-C-015 (HIV-1).
The target of assay [26] is HIV-1 Env of isolate MG RM-C-012 (HIV-1).
In assay [27] the target is HIV-1 Env of isolate MG RM-C-007 (HIV-1).
Assay [28] concerns the target HIV-1 Env of isolate MG RM-C-008 (HIV-1).

B1: 1496_C09 (PG9) (TCN-109) (antibody, V domains shown)
VH: QRLVESGGGVVQPGSSLRLSCAASGFDFSRQGMHWVRQAPGQGLEWVAFIKYDGSEKYHADSVWGRLSISRDNSKDTLYLQMNSLRVEDTATYFCVREAGGPDYRNGYNYYDFYDGYYNYHYMDVWGKGTTVTVSS
VL: QSALTQPASVSGSPGQSITISCNGTSNDVGGYESVSWYQQHPGKAPKVVIYDVSKRPSGVSNRFSGSKSGNTASLTISGLQAEDEGDYYCKSLTSTRRRVFGTGTKLTVLG
For B1, the “IC50, pseudovirus neutralization” value in assay [1] stood at 0.033 µg/mL; in assay [2], 1.94 µg/mL; in assay [3], 0.259 µg/mL; in assay [4], 17.1 µg/mL; in [5], 0.022 µg/mL; in assay [6] it was 22.8 µg/mL. In addition, the “IC50, pseudovirus neutralization” value worked out at 1.06 µg/mL in assay [7]; 0.023 µg/mL in assay [8]; 0.076 µg/mL in assay [9]; 0.122 µg/mL in [10]; 19.3 µg/mL in assay [11]; 0.75 µg/mL in assay [12]. For the same molecule, the “IC50, pseudovirus neutralization” value in assay [13] is 1.25 µg/mL; in [14], 0.007 µg/mL.

B2: PGT-122 monoclonal antibody (4877_D15) (antibody, V domains shown)
VH: QVHLQESGPGLVKPSETLSLTCNVSGTLVRDNYWSWIRQPLGKQPEWIGYVHDSGDTNYNPSLKSRVHLSLDKSKNLVSLRLTGVTAADSAIYYCATTKHGRRIYGVVAFKEWFTYFYMDVWGKGTSVTVSS
VL: TFVSVAPGQTARITCGEESLGSRSVIWYQQRPGQAPSLIIYNNNDRPSGIPDRFSGSPGSTFGTTATLTITSVEAGDEADYYCHIWDSRRPTNWVFGEGTTLIVL
Consider B2, for which the “neutralization IC50” value in assay [15] is greater than 50 µg/mL; in assay [16], 0.022 µg/mL; in assay [17], 0.018 µg/mL; in assay [18], 32.6 µg/mL; in assay [19] it was 0.02 µg/mL; in assay [20], greater than 50 µg/mL. Also, the “neutralization IC50” value was 19.1 µg/mL in assay [21]; greater than 50 µg/mL in assay [22]; 0.027 µg/mL in assay [23]; 0.015 µg/mL in [24]; greater than 50 µg/mL in assay [25]; 2 µg/mL in assay [26]. The “neutralization IC50” value amounted to 3.35 µg/mL in assay [27] and 0.028 µg/mL in assay [28].
